Measured values from several laboratories, pooled; numbers as filed in NIAID ChemDB.

Common to all: host cell toxicity; measure: CC50

Blank or dashed fields: not listed here. Neighbouring rows are from separate reports. CCn: concentration that lowers growth or viability of the cells by n%.

structure,read by,cells,result
C[C@@H]1O[C@@H](O[C@@H]2[C@@H](O)[C@H](OCCc3ccc(O)c(O)c3)O[C@H](CO)[C@H]2OC(=O)/C=C/c2ccc(O)c(O)c2)[C@H](O)[C@H](O)[C@H]1O,MTT,HL-60,13.52 µM
Nc1ncnc2c1cnn2C[C@@H](CO)OCP(=O)(O)O,,HSB-2,12 µM
CC(=O)O[C@H]1[C@@H](O)C[C@H](O[C@H]2[C@@H](O)C[C@H](O[C@H]3[C@@H](O)C[C@H](O[C@H]4CC[C@@]5(C)[C@H](CC[C@@H]6[C@@H]5CC[C@]5(C)[C@@H](C7=CC(=O)OC7)CC[C@]65O)C4)O[C@@H]3C)O[C@@H]2C)O[C@@H]1C,MTT,GMK AH1,>250 µM
Cc1cn([C@H]2C[C@H](O)[C@@H](CO)O2)c(=O)[nH]c1=O,,RPMI8226,1237 µM
COc1cc(CCOC(=O)CCC(=O)CO)cc(O)c1OC,MTT,HL-60,3.1 µM
C[C@H]1O[C@@H](O[C@H]2[C@@H](O)C[C@H](O[C@H]3[C@@H](O)C[C@H](O[C@H]4CC[C@@]5(C)[C@H](CC[C@@H]6[C@@H]5CC[C@]5(C)[C@@H](C7=CC(=O)OC7)CC[C@]65O)C4)O[C@@H]3C)O[C@@H]2C)C[C@H](O)[C@@H]1O,MTT,GMK AH1,>25 µM
Cc1cn([C@@H]2O[C@H](CO)[C@@H](O)[C@@H]2O)c(=S)[nH]c1=O,,RPMI8226,>365 µM
COC1=CC23CCCN2CCc2cc4c(cc2C3C1O)OCO4,,EBTR,>100 µM
CO[C@H]1C[C@H](O[C@H]2CC[C@]3(C=O)[C@H]4CC[C@]5(C)[C@@H](C6=CC(=O)OC6)CC[C@]5(O)[C@@H]4CC[C@]3(O)C2)O[C@H](C)[C@H]1O[C@@H]1O[C@H](CO[C@@H]2O[C@H](CO)[C@@H](O)[C@H](O)[C@H]2O)[C@@H](O)[C@H](O)[C@H]1O,MTT,GMK AH1,>250 µM
CN[C@@H]1C[C@H](N)[C@@H](O)[C@H](O[C@@H]2O[C@H](CO)[C@H](O)[C@@H]3OC4(O[C@H]23)O[C@H]([C@@H](N)CO)[C@H](O)[C@H](O)[C@H]4O)[C@H]1O,,HeLa,>100 µM
CN(C)c1cc(OCCOCP(=O)(O)O)nc(N)n1,,HeLa S3,<10 µM
COc1cc(/C=C/C(=O)O[C@H]2[C@H](O)[C@@H](OC3OCC(O)(CO)C3O)[C@H](OCCc3ccc(O)cc3)O[C@@H]2CO)ccc1O,MTT,HL-60,5.15 µM
CC[C@H]1OC(=O)[C@H](C)[C@@H](OC2CC(C)(OC)C(O)C(C)O2)C(C)[C@@H](OC2OC(C)CC(N(C)C)C2O)[C@](C)(O)C[C@@H](C)C(=O)[C@H](C)[C@@H](O)[C@H]1C,,HeLa,>200 µg/mL
Nc1cc(=O)n(CCOCP(=O)(O)O)c(N)n1,,HeLa S3,<10 µM
O=c1[nH]c(=O)n([C@H]2O[C@@H](CO)C[C@H]2F)cc1I,,PBM,>100 µM
CC(N)C(=O)NC1C(C)OC(=O)C2=C(O)CC(O)C(O)C21,,HeLa,167 µM
Nc1nc(N)c2nnn(C[C@@H](CO)OCP(=O)(O)O)c2n1,,HSB-2,>300 µM
Nc1nc(OCCOCP(=O)(O)O)cc(OCCOCP(=O)(O)O)n1,,CCRF-CEM,<10 µM
OCCc1ccc(O)c(O[C@@H]2O[C@H](CO)[C@@H](O)[C@H](O)[C@H]2O)c1,MTT,MDA-MB-231,4.78 µM
Nc1nc(=O)n([C@@H]2O[C@H](CO)[C@@H](O)[C@@H]2F)cc1I,,HSB-2,2.4 µM
Cc1cn([C@H]2O[C@@H](CO)C[C@H]2F)c(=O)[nH]c1=O,,PBM,>100 µM
O=c1[nH]c(=S)n([C@H]2C[C@H](O)[C@@H](CO)O2)cc1F,,RPMI8226,184 µM
Nc1ccn(C[C@@H](CO)OCP(=O)(O)O)c(=O)n1,,HSB-2,141 µM
O=C1CC(=O)N([C@@H]2O[C@H](CO)[C@@H](O)[C@H]2O)C(=O)N1,,HeLa,200 µg/mL
C[C@H]1O[C@@H](O[C@H]2CC[C@@]3(C)[C@H](CC[C@@H]4[C@@H]3C[C@@H](O)[C@]3(C)[C@@H](C5=CC(=O)OC5)CC[C@]43O)C2)C[C@H](O)[C@@H]1O[C@H]1C[C@H](O)[C@H](O[C@H]2C[C@H](O)[C@H](O[C@@H]3C[C@H](CO)[C@@H](O)[C@H](O)[C@H]3O)[C@@H](C)O2)[C@@H](C)O1,MTT,GMK AH1,>250 µM
C[C@@H]1C[C@@H]([C@H](O)CC2CC(=O)NC(=O)C2)C(=O)[C@@H](C)C1,,HeLa,100 µg/mL
NC(N)=NC(=O)c1nc(Cl)c(N)nc1N,,MDM,>10 µM
Nc1nc(N)c2ncn(C[C@@H](CO)OCP(=O)(O)O)c2n1,,HSB-2,404 µM
O=c1ccn([C@@H]2O[C@@H](CO)C[C@H]2F)c(=O)[nH]1,,PBM,>100 µM
Cc1c(N)nc([C@H](CC(N)=O)NC[C@H](N)C(N)=O)nc1C(=O)N[C@H](C(=O)N[C@H](C)[C@@H](O)[C@H](C)C(=O)N[C@H](C(=O)NCCc1nc(-c2nc(C(=O)NCCC[S+](C)C)cs2)cs1)[C@@H](C)O)C(O[C@@H]1O[C@@H](CO)[C@@H](O)[C@H](O)[C@@H]1O[C@H]1O[C@H](CO)[C@@H](O)[C@H](OC(N)=O)[C@@H]1O)c1cnc[nH]1,,HeLa,>200 µg/mL
CO[C@H]1C[C@H](O[C@H]2[C@@H](O)C[C@H](O[C@H]3[C@@H](O)C[C@H](O[C@H]4CC[C@@]5(C)[C@H](CC[C@@H]6[C@@H]5CC[C@]5(C)[C@@H](C7=CC(=O)OC7)CC[C@]65O)C4)O[C@@H]3C)O[C@@H]2C)O[C@H](C)[C@H]1O,MTT,GMK AH1,>250 µM
C[C@@H](COc1cc(N)nc(N)n1)OCP(=O)(O)O,,L1210,<10 µM
Nc1nc(N)c2ncn(CCOCP(=O)(O)O)c2n1,,HSB-2,164 µM
C[S@@](=O)CCCCN=C=S,WST,TW01,11.55 µM
Nc1nccc2c1ncn2C[C@H]1COP(=O)(O)CO1,,HSB-2,45 µM
Nc1ncnc2c1ncn2[C@@H]1O[C@@H](CO)CC1F,,PBM,>100 µM
CN(C)[C@@H]1C(=O)C(C(N)=O)=C(O)[C@@]2(O)C(=O)C3=C(O)c4c(O)cccc4[C@@](C)(O)[C@H]3[C@H](O)[C@@H]12,,HeLa,100 µM
O=c1[nH]c(=O)n([C@H]2C[C@H](O)[C@@H](CO)O2)cc1F,,MRC-5,>385 µM

4 of the rows above, restated:

COc1cc(/C=C/C(=O)O[C@H]2[C@H](O)[C@@H](OC3OCC(O)(CO)C3O)[C@H](OCCc3ccc(O)cc3)O[C@@H]2CO)ccc1O ; read by: MTT ; cells: HL-60 ; result: 5.15 µM
C[C@H]1O[C@@H](O[C@H]2[C@@H](O)C[C@H](O[C@H]3[C@@H](O)C[C@H](O[C@H]4CC[C@@]5(C)[C@H](CC[C@@H]6[C@@H]5CC[C@]5(C)[C@@H](C7=CC(=O)OC7)CC[C@]65O)C4)O[C@@H]3C)O[C@@H]2C)C[C@H](O)[C@@H]1O ; read by: MTT ; cells: GMK AH1 ; result: >25 µM
Nc1ncnc2c1cnn2C[C@@H](CO)OCP(=O)(O)O ; cells: HSB-2 ; result: 12 µM
Cc1cn([C@H]2C[C@H](O)[C@@H](CO)O2)c(=O)[nH]c1=O ; cells: RPMI8226 ; result: 1237 µM